Test results from paper PMC10302633 (Marine Drugs, 2023).
Some compounds may have been tested in ways that are not shown here.

By UniProt entry, the sequences of proteins in these tests, tags left out. Residues count along the entry.
UniProt P12389, 28-511 limits assumed: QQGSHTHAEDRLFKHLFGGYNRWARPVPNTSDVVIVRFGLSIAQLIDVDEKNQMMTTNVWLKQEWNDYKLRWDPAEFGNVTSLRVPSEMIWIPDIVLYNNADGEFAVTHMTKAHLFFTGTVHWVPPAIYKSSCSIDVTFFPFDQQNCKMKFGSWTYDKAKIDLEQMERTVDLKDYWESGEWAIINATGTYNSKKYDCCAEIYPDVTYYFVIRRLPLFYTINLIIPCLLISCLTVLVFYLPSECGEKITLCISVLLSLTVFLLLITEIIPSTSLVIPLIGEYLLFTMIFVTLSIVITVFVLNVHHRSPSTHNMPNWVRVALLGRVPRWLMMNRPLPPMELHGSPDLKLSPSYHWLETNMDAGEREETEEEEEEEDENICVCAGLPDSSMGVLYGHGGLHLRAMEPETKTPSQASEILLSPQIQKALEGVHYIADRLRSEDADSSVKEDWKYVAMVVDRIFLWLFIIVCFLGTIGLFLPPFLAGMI
UniProt P12392, 21-495 limits assumed: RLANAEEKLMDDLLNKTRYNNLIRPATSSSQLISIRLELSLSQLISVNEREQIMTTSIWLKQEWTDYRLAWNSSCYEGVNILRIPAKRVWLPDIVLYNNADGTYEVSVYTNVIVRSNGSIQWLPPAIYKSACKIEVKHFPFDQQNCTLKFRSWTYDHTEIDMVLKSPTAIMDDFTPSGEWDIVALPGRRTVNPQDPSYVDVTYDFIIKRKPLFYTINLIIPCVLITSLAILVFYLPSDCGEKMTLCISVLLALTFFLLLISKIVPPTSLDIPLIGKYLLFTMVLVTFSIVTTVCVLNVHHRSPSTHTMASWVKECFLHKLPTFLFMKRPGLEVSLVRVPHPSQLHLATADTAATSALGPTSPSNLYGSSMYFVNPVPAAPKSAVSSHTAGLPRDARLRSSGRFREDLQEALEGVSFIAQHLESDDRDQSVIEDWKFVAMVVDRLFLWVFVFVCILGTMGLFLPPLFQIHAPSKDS
UniProt P12392, whole entry, looked up: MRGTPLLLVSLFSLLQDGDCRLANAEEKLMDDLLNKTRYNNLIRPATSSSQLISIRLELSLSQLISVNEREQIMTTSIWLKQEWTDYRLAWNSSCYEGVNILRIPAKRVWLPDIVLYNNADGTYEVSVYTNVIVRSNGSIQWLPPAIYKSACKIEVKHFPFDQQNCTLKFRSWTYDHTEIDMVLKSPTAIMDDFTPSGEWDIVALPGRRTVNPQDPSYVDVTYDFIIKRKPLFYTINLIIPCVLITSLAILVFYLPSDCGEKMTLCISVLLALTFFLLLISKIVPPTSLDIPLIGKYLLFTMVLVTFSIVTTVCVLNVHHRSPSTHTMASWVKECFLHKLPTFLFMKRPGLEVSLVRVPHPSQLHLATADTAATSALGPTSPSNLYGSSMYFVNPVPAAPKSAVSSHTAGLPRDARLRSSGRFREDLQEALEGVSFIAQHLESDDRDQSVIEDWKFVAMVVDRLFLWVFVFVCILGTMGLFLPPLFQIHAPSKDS
UniProt P36544, 23-502 limits assumed: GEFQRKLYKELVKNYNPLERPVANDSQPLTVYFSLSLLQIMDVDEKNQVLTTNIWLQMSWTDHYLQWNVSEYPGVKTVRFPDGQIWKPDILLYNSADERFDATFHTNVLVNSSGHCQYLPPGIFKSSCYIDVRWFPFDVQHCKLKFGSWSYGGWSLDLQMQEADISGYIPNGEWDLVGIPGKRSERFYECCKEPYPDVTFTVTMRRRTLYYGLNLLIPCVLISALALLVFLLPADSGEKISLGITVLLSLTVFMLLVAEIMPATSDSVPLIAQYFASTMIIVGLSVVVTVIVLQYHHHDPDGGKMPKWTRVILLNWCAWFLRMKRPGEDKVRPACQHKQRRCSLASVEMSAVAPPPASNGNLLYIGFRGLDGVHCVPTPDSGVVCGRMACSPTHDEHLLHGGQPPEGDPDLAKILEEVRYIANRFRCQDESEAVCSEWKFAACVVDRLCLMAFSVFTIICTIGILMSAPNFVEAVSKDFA
UniProt P09483, 31-630 limits assumed: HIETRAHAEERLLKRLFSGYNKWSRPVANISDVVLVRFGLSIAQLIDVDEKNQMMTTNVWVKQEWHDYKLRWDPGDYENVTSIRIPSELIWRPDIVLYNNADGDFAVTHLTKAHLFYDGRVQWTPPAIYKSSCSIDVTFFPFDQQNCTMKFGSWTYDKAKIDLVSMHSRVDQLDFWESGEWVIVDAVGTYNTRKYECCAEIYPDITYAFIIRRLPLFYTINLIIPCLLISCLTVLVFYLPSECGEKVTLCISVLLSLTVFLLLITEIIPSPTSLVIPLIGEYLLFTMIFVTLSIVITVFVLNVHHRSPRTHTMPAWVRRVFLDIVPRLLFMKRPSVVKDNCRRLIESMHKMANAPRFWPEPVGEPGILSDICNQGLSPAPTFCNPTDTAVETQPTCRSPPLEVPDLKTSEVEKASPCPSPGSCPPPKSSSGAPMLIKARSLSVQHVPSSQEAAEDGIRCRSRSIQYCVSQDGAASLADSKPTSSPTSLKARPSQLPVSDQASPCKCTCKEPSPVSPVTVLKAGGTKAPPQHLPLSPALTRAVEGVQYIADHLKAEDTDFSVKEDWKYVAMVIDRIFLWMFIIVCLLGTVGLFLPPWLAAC
UniProt P04757, 26-499 limits assumed: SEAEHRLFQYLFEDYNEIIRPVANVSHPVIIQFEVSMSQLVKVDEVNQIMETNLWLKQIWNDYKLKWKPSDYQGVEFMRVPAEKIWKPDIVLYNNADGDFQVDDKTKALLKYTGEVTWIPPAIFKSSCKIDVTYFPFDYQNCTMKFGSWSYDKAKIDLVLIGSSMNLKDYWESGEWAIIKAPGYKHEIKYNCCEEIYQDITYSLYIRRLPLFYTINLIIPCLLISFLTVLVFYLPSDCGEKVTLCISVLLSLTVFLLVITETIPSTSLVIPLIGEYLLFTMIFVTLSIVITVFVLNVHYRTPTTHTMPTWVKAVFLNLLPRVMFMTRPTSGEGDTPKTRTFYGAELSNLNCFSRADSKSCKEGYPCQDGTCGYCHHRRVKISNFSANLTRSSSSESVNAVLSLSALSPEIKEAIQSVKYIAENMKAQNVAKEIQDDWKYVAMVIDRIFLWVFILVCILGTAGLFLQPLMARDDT
UniProt P04757, whole entry, looked up: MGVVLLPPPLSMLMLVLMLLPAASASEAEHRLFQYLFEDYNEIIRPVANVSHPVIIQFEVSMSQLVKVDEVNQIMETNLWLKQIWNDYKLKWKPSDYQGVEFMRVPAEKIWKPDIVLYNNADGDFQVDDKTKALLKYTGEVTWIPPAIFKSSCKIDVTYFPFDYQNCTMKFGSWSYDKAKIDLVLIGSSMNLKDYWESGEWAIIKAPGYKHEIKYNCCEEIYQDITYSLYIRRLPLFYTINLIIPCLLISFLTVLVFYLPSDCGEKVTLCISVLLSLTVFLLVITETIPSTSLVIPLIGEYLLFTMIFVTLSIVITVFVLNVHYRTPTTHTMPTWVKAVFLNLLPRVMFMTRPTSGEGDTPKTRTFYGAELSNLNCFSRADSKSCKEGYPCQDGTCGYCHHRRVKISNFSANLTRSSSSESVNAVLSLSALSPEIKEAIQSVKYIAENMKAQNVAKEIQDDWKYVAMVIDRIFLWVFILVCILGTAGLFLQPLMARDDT
UniProt P12390, 25-500 limits assumed: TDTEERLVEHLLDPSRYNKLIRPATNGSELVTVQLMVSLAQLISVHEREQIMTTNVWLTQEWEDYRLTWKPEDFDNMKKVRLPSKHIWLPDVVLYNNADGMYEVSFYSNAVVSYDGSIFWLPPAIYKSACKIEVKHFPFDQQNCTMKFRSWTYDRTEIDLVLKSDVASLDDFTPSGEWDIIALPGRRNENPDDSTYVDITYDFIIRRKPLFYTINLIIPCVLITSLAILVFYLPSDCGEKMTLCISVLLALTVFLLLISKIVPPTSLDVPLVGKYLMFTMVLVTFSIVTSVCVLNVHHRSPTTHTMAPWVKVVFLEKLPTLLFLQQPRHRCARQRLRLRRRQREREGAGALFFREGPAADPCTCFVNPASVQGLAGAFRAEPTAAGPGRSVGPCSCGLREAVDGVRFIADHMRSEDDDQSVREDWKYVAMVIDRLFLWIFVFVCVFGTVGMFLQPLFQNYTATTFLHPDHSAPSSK
UniProt Q05941, 23-502 limits assumed: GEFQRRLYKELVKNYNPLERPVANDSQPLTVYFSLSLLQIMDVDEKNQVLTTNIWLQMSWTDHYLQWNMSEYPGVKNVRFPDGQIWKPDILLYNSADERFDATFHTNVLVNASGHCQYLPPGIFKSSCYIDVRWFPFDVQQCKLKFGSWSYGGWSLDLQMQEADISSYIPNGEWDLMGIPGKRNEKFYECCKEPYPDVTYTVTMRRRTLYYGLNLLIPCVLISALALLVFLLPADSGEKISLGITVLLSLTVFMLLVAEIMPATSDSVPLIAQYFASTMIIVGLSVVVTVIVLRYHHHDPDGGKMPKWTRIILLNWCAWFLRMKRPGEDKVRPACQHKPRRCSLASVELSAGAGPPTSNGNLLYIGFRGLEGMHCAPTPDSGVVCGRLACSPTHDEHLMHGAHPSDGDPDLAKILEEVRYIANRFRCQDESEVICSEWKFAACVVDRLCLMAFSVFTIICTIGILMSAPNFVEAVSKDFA
UniProt P43143, whole entry M241L/F253L/V303I/V320I/I327V/A333T/K339T, looked up: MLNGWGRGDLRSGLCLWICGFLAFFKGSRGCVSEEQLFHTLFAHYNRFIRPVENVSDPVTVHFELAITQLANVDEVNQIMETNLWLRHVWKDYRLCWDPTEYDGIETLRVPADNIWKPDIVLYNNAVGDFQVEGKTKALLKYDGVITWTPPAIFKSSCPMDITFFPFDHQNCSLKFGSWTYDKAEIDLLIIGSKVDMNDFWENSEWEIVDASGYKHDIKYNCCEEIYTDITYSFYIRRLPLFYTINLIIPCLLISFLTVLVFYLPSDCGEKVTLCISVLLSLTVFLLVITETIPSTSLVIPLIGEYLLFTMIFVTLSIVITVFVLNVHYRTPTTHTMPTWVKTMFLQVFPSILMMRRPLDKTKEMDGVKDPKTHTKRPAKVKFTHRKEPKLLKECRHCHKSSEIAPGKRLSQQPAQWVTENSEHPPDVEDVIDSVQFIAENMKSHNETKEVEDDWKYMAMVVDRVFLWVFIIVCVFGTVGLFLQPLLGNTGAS

Legend:
[1] = target: rat α2β4 nAChR (Rattus norvegicus, UniProt P12389+P12392); assay: Two-electrode voltage clamp, rat α2β4 nAChR in Xenopus oocytes; conditions: 10 μM peptide, n = 3–6
[2] = target: human α7 nAChRs (Homo sapiens, UniProt P36544); assay: Two-electrode voltage clamp, inhibition of ACh-evoked currents, human α7 nAChR in Xenopus oocytes; type: cell-based; conditions: read-out: IC50 (95% CI), hα7, −70 mV, 200 μM ACh pulse, 5 min pre-incubation with toxin, n = 4 (RgIA), 7 (RgIA[11r])
[3] = target: rat α4β4 nAChR (Rattus norvegicus, UniProt P09483+P12392); assay: Two-electrode voltage clamp, rat α4β4 nAChR in Xenopus oocytes; conditions: 10 μM peptide, n = 3–6
[4] = target: rat α3β2 nAChR (Rattus norvegicus, UniProt P04757+P12390); assay: Two-electrode voltage clamp, rat α3β2 nAChR in Xenopus oocytes; conditions: 10 μM peptide, n = 3–6
[5] = Analytical RP-UPLC retention time as measure of hydrophilicity; conditions: chromatographic, ACQUITY UPLC BEH C18 (1.7 µm, 2.1 × 50 mm); buffer A 0.05% TFA in water, buffer B 90% aqueous acetonitrile; linear gradient, 0.5 mL/min; UV 214 nm; folded peptide
[6] = Serum stability assay; conditions: human serum from male AB plasma, pre-incubated 15 min at 37 °C, peptide 0.1 mg/mL, sampling 0–480 min, urea/TCA work-up, RP-UPLC peak area vs 0 min, n = 6
[7] = tested on: mouse α1β1δγ nAChR; assay: Two-electrode voltage clamp, mouse α1β1δγ nAChR in Xenopus oocytes; conditions: 10 μM peptide, n = 3–6
[8] = target: rat α7 nAChRs (Rattus norvegicus, UniProt Q05941); assay: Two-electrode voltage clamp, inhibition of ACh-evoked currents, rat α7 nAChR in Xenopus oocytes; type: cell-based; conditions: read-out: IC50 (95% CI), rα7, −70 mV, 200 μM ACh pulse, 5 min pre-incubation with toxin, n = 3 (RgIA), 11 (RgIA[11r])
[9] = target: rat α4β2 nAChR (Rattus norvegicus, UniProt P09483+P12390); assay: Two-electrode voltage clamp, rat α4β2 nAChR in Xenopus oocytes; conditions: 10 μM peptide, n = 3–6
[10] = target: rat α6/α3β4 nAChR (Rattus norvegicus, UniProt P04757+P12392+P43143); assay: Two-electrode voltage clamp, rat α6/α3β4 nAChR in Xenopus oocytes; conditions: 10 μM peptide, n = 3–6
[11] = target: rat α3β4 nAChR (Rattus norvegicus, UniProt P04757+P12392); assay: Two-electrode voltage clamp, rat α3β4 nAChR in Xenopus oocytes; conditions: 10 μM peptide, n = 3–6

N=C(N)NCCC[C@H](NC(=O)[C@@H]1CSSC[C@@H]2NC(=O)[C@@H](NC(=O)CN)CSSC[C@H](NC(=O)[C@H](CCCNC(=N)N)NC(=O)[C@@H]3CCCN3C(=O)[C@H](CC(=O)O)NC(=O)[C@H](CO)NC2=O)C(=O)N[C@@H](CCCNC(=N)N)C(=O)N[C@@H](Cc2ccc(O)cc2)C(=O)N[C@H](CCCNC(=N)N)C(=O)N1)C(=O)O
inhibition of ACh-evoked currents [1]: below 50% | IC50 [2]: 463 nM | inhibition of ACh-evoked currents [3]: below 50% | inhibition of ACh-evoked currents [4]: below 50% | retention time (analytical RP-UPLC), read as hydrophilicity [5]: 1.717 min | time to complete degradation in human serum [6]: ≤ 30 min | inhibition of ACh-evoked currents [7]: below 50% | IC50 [8]: 163 nM | inhibition of ACh-evoked currents [9]: below 50% | inhibition of ACh-evoked currents [10]: below 50% | inhibition of ACh-evoked currents [11]: below 50%
